Experimental data reported in article PMC8220418, “A fragment-based approach to assess the ligandability of ArgB, ArgC, ArgD and ArgF in the L-arginine biosynthetic pathway of Mycobacterium tuberculosis” (Computational and Structural Biotechnology Journal, 2021).

Molecular target: ArgB (Mycobacterium tuberculosis, UniProt P9WQ01)
Experiment: Isothermal titration calorimetry with ArgB
Format: binding
Settings: read-out: ITC Kd; 25 °C, single-site model

CC(=O)N[C@@H](CCC(=O)O)C(=O)O [NAG, N-acetyl-L-glutamic acid]
Kd: 56 µM
